Data on 1 molecule can be found in US20240207224A1, “MACROCYCLIC CHALCONE-AMIDE DERIVED ANTIVIRAL AGENTS” (priority 2022, published 2024).

This assay relates to SARS-CoV-2 replicon. In words: SARS-CoV-2 Replicon Assay (Huh-7). The conditions noted are these: read-out: SARS-COV-2 replicon EC50; HuH-7 cells, Renilla luciferase reporter, approximately 20 hours. The protocol:
White 384-well tissue-culture-treated clear-bottom plates are used in this assay. Using a Labcyte ECHO liquid dispenser, 3-fold serial dilutions of compounds suspended in DMSO are added to the inner 308 wells in duplicate in a total volume of 125 nL per well. Two columns are treated only with 125 nL DMSO, to be used as controls. […] HuH-7 cells at 1E7 cells/mL without RNA are electroporated as a low control. For each 100 μL electroporated cell suspension, 1150 μL pre-warmed (37° C.) media (DMEM, 1×GlutaMAX, 10% FBS) is added to the cells for a final concentration of 800 cells/μL. The electroporated cells are seeded into the 308 inner compound and control wells of the 384-well plate at 20,000 cells per well in a total volume of 25 μL. […] 25 μL of room temperature 1×Renilla-Glo Luciferase Assay Reagent (Promega) are added to each well and incubated at room temperature for 10 minutes and luminescence was measured on a Perkin Elmer EnVision. The Renilla-Glo reagent quantifies the amount of luciferase activity, which gives a measure of replicon activity present. The half-maximal effective concentration (EC50) was determined using GraphPad Prism. Percent residual activity of the replicon is determined after normalizing the curve to the mean RLU high control at 100% and the mean RLU low control at 0%. […]

By EC50 is commonly meant the concentration that produces a half-maximal response. `COC(=O)/C=C/C(=O)NNC(=O)CCc1ccc2cc1C(=O)N[C@H](C)c1cc(cc3c1CCCC3)CCCCCN(C)C2=O`: the EC50 fell in the range of 1 to 10 µM.
